The subject of this assay is SARS-CoV-2 PsV. The format is cell-based. Particulars: highest dose, pre-incubated with PsV 45 min, 293/ACE2/TMPRSS2 cells, luciferase.

For the substance “ACE2: Recombinant human angiotensin-converting enzyme 2 (ACE2) protein (carrier-free), R&D Systems”, the PsV infection inhibition is reported as roughly 66%.

The values are drawn from patent US20250009896A1, “SUPR[…] BASED VIRAL […] CAPTURE FOR PREVENTION AND THERAPY OF VIRAL INFECTION” (The Johns Hopkins University, priority 2023, published 2025).
